Pooled drug test results. Numbers come from NIAID ChemDB, via PubChem.

All rows: toxicity to cultured cells; cells: MRC-5; endpoint: CC50

Blank or dashed fields: not listed here.

smiles | method | result
O=C1c2ccccc2C(=O)c2ccccc21 | - | >48 µM
CC(=O)N(O)CCCP(=O)(O)O | fluorescence | >59 µM
CCCCCCCCSC[C@H](O)COP(=O)(O)C(=O)O | - | 205 µM
CC(Oc1ccc2ncccc2c1)C(=O)N/N=C/c1ccc(C#N)cc1 | absorbance | >512 µM
O=C(O)P(=O)(O)O | - | 830 µM
O=C1c2cccc(O)c2C(=O)c2c(O)cccc21 | - | >41.6 µM
O=C(CCC(c1ccccc1)P(=O)(O)O)NO | fluorescence | >59 µM
CCCCCCCCCCCCCCCCCCOC[C@@H](O)COP(=O)(O)C(=O)O | - | >1000 µM
Cc1cc(O)c2c(c1)C(=O)c1cc(O)cc(O)c1C2=O | - | 12.6 µM
ClCc1csc2ccccc12 | visual reading | >10 µg/mL
C[C@@H]1O[C@@H](Oc2c(-c3ccc(O)cc3)oc3cc(O)cc(O)c3c2=O)[C@H](OC(=O)/C=C/c2ccc(O)cc2)[C@H](OC(=O)/C=C/c2ccc(O)cc2)[C@H]1O | - | >40 µM
CC(Oc1ccc2ncccc2c1)C(=O)N/N=C/c1cccc([N+](=O)[O-])c1 | absorbance | >512 µM
CCCCCCCCCCCCCCCCCCOC[C@@H](O)COP(=O)(O)C(=O)O | - | 395 µM
Cc1cc(O)c2c(c1)C(=O)c1cccc(O)c1C2=O | - | >39.3 µM
CC(Oc1ccc2ncccc2c1)C(=O)N/N=C/c1ccc(Cl)cc1 | absorbance | >512 µM
Cc1cc(O)c2c(c1)Cc1cc(O)cc(O)c1C2=O | - | 10.1 µM
CC(O)C/C=N/NC(=O)C(C)Oc1ccc2ncccc2c1 | absorbance | >512 µM
N#C/C(=C/c1ccncc1)c1csc2ccccc12 | visual reading | >32 µg/mL
CC(Oc1ccc2ncccc2c1)C(=O)N/N=C/c1ccccc1[N+](=O)[O-] | absorbance | >512 µM
O=C1c2ccc(O)cc2C(=O)c2ccc(O)cc21 | - | 14.2 µM
CC(Oc1ccc2ncccc2c1)C(=O)N/N=C/c1ccc(F)cc1 | absorbance | >512 µM
O=C1c2cccc(O)c2C(=O)c2c(O)cc(CO)cc21 | - | >37 µM

For reference, 3 entries again:

| smiles | method | result |
|---|---|---|
| O=C1c2cccc(O)c2C(=O)c2c(O)cc(CO)cc21 | - | >37 µM |
| O=C(CCC(c1ccccc1)P(=O)(O)O)NO | fluorescence | >59 µM |
| CCCCCCCCCCCCCCCCCCOC[C@@H](O)COP(=O)(O)C(=O)O | - | 395 µM |

CCn is the concentration with n% toxicity to the cells. Conditions beyond the fields shown may differ between rows.